Data as given in PubChem BioAssay AID504761 (Drosophila RNAi Screening Center, 2011).

- Screen: 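Insect host genes that dengue virus relies on to spread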 (primary screen)
- Cells: D.Mel-2 cells from Drosophila
- Reagent: long dsRNA against Drosophila genes
- Challenge: infection with dengue virus type 2; dose and infection time not stated
- Measurement: 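Cells stained for dengue envelope protein and imaged; percent of infected cells per well on duplicate plates, ranked by infection, with stained nuclei counted for cell number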
- Scale: infection score: higher = more virus-infected cells; cell count: higher = more cells in the well
- Hit rule: 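Low infection ranks in the two replicates (chance level up to 0.065) followed by a retest with a 1.5-fold or larger significant decrease, p below 0.05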
- Meaning of the calls: active = confirmed: knock-down lowers infection; inactive = not picked or not confirmed
In all, the deposit lists about 22,000 reagents; below is an unselected part of those that have a named target and a result. In the full data, 116 (0.52%) were called active. 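Calls depend on retest data that are not deposited; infection was ranked per plate without normalising between plates; the unit of the infection score is not given.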 Raw values vary from plate to plate and are shown uncorrected. Entries without a mark were called inactive. Reagents against one gene are numbered here. No sequences are given here. The record does not give: the amount of reagent, the time to read-out.

Knock-down of Rga #1 resulted in: infection score, replicate 1 = 6.15; infection score, replicate 2 = 0.9; cell count, replicate 1 = 4454; cell count, replicate 2 = 4660.
Rga #2 scored infection score, replicate 1 = 10.4; infection score, replicate 2 = 10.2; cell count, replicate 1 = 5989; cell count, replicate 2 = 5724.
RabGGTb #1 showed infection score, replicate 1 = 3.69; infection score, replicate 2 = 2.36; cell count, replicate 1 = 6295; cell count, replicate 2 = 5838.
With knock-down of RabGGTb #2, the record shows infection score, replicate 1 = 18; infection score, replicate 2 = 17.4; cell count, replicate 1 = 6003; cell count, replicate 2 = 5634.
Silencing of CG14006 resulted in: infection score, replicate 1 = 0.64; infection score, replicate 2 = 3.4; cell count, replicate 1 = 6748; cell count, replicate 2 = 5978.
Silencing of Sik2 gave: infection score, replicate 1 = 15.4; infection score, replicate 2 = 1.31; cell count, replicate 1 = 2650; cell count, replicate 2 = 6109.
CG12159 gave infection score, replicate 1 = 5.76; infection score, replicate 2 = 13.2; cell count, replicate 1 = 3105; cell count, replicate 2 = 4159.
Depletion of CG34107 came out at: infection score, replicate 1 = 15.1; infection score, replicate 2 = 7.3; cell count, replicate 1 = 6209; cell count, replicate 2 = 6908.
Depletion of CG14826 came out at: infection score, replicate 1 = 2.4; infection score, replicate 2 = 2.19; cell count, replicate 1 = 6429; cell count, replicate 2 = 6176.
After knock-down of CG8586, the record shows infection score, replicate 1 = 10.2; infection score, replicate 2 = 6.3; cell count, replicate 1 = 5939; cell count, replicate 2 = 6489.

Part of the list above, limited to “infection score, replicate 2”.
Rga #2	10.2
RabGGTb #1	2.36

Next reagents follow.
For CG17349 the deposit lists infection score, replicate 1 = 11.6; infection score, replicate 2 = 2.96; cell count, replicate 1 = 5538; cell count, replicate 2 = 6752.
Depletion of CG8180 #1 resulted in: infection score, replicate 1 = 13.7; infection score, replicate 2 = 16.5; cell count, replicate 1 = 1762; cell count, replicate 2 = 6054.
Against CG8180 #2, the values are infection score, replicate 1 = 9.5; infection score, replicate 2 = 13; cell count, replicate 1 = 6761; cell count, replicate 2 = 6603.
After knock-down of Vha16-5, the screen gave infection score, replicate 1 = 1.04; infection score, replicate 2 = 1.06; cell count, replicate 1 = 6470; cell count, replicate 2 = 6332.
Depletion of BomT2 resulted in: infection score, replicate 2 = 14.7; cell count, replicate 1 = 385; cell count, replicate 2 = 4922.
For CG14561, the values are infection score, replicate 1 = 4.08; infection score, replicate 2 = 3.04; cell count, replicate 1 = 6295; cell count, replicate 2 = 6651.
Against CG15561 #1, the values are infection score, replicate 1 = 4.48; infection score, replicate 2 = 1.52; cell count, replicate 1 = 5800; cell count, replicate 2 = 6951.
After knock-down of CG15561 #2, the screen gave infection score, replicate 1 = 1.31; infection score, replicate 2 = 1.43; cell count, replicate 1 = 7086; cell count, replicate 2 = 7416.
For ifc, the entry reads infection score, replicate 1 = 0.63; infection score, replicate 2 = 2.19; cell count, replicate 1 = 6052; cell count, replicate 2 = 5802.
With knock-down of CG30460 #1, the record shows infection score, replicate 1 = 6.33; infection score, replicate 2 = 13.4; cell count, replicate 1 = 6349; cell count, replicate 2 = 6671.
After knock-down of CG30460 #2 the results were infection score, replicate 1 = 1.31; infection score, replicate 2 = 10.1; cell count, replicate 1 = 6319; cell count, replicate 2 = 7126.
Knock-down of sicily resulted in: infection score, replicate 1 = 21.3; infection score, replicate 2 = 15.3; cell count, replicate 1 = 5457; cell count, replicate 2 = 5778.
With knock-down of Cerk, the record shows infection score, replicate 1 = 2.18; infection score, replicate 2 = 6.27; cell count, replicate 1 = 6890; cell count, replicate 2 = 6713.
CG30447 scored infection score, replicate 1 = 0.83; infection score, replicate 2 = 0.24; cell count, replicate 1 = 6400; cell count, replicate 2 = 4950.
For Cyp6a8, the entry reads infection score, replicate 1 = 15.2; infection score, replicate 2 = 2.68; cell count, replicate 1 = 6211; cell count, replicate 2 = 6379.
CG12236 #1 gave infection score, replicate 1 = 3.3; infection score, replicate 2 = 0.67; cell count, replicate 1 = 6579; cell count, replicate 2 = 6745.
For CG12236 #2, the values are infection score, replicate 1 = 3.03; infection score, replicate 2 = 0.65; cell count, replicate 1 = 6344; cell count, replicate 2 = 6449.
